The results in this text go back to paper PMC4193892, “3-O-Galloylated Procyanidins from Rumex acetosa L. Inhibit the Attachment of Influenza A Virus” (PLoS ONE, 2014).

The subject of the data set is recombinant purified HA of influenza virus A/California/07/2009 (H1N1). As to conditions: (8) 1.13 mM, (6) 2.18 mM; time dependent.

With `O=C(O[C@@H]1Cc2c(O)cc(O)cc2O[C@@H]1c1cc(O)c(O)c(O)c1)c1cc(O)c(O)c(O)c1` [compound 6, reference compound], the “monomeric HA band in Coomassie-stained gels” value was “slight reduction of the monomeric HA band”.
